Results deposited as PubChem BioAssay AID1259414 (Drosophila RNAi Screening Center, 2018)
In all, the deposit lists about 24,000 reagents; this is an unselected part of those that have a named target and a result. In the full data, about 1,210 (5%) got an active call. 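Inactive calls also include excluded dsRNAs with several or no targets, genes unexpressed in JW18, and well A1, regardless of score.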

Purpose: 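Genome-wide screen for host control of endosymbiont load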 (primary screen)
Cells: Drosophila JW18 cells infected with Wolbachia
Knock-down reagent: long dsRNA against Drosophila genes, 0.25 µg dsRNA per well of a 384-well plate
Time to read-out: 5 days
Conditions: cells persistently infected with Wolbachia before knock-down; no added drug
Detection: 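Automated imaging of bacterial rRNA staining divided by host cell count, reported as plate-normalised robust z-score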
Scale: Wolbachia per cell robust z: higher = more Wolbachia per host cell than the plate typical
Call rule: 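Hit when robust z is 1.5 or more, or -1.5 or less, in at least two of three replicates; excludes dsRNAs with several or no targets, genes not expressed in JW18 and well A1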

After knock-down of Hecw (Hecw ubiquitin protein ligase) [DRSC18261], the record shows Wolbachia per cell robust z, rep 1 = -1.63; Wolbachia per cell robust z, rep 2 = -1.86; Wolbachia per cell robust z, rep 3 = -1.32; active.
Hecw (Hecw ubiquitin protein ligase) [DRSC18276] scored Wolbachia per cell robust z, rep 1 = -1.25; Wolbachia per cell robust z, rep 2 = -1.02; Wolbachia per cell robust z, rep 3 = -1.29; inactive.
Depletion of Hecw (Hecw ubiquitin protein ligase) [DRSC25872] came out at: Wolbachia per cell robust z, rep 1 = 0.0921; Wolbachia per cell robust z, rep 2 = -0.815; Wolbachia per cell robust z, rep 3 = 0.466; inactive.
Knock-down of Hecw (Hecw ubiquitin protein ligase) [DRSC41302] came out at: Wolbachia per cell robust z, rep 1 = 0.521; Wolbachia per cell robust z, rep 2 = 0.209; Wolbachia per cell robust z, rep 3 = 0.489; inactive.
Against Tsp96F (Tetraspanin 96F) [DRSC14147], the entry reads Wolbachia per cell robust z, rep 1 = -0.149; Wolbachia per cell robust z, rep 2 = -0.245; Wolbachia per cell robust z, rep 3 = 1.34; inactive.
Against CG31139 [DRSC21393], the values are Wolbachia per cell robust z, rep 1 = 1.01; Wolbachia per cell robust z, rep 2 = 1.13; Wolbachia per cell robust z, rep 3 = 0.691; inactive.
mRpS7 (mitochondrial ribosomal protein S7) [DRSC02814] scored Wolbachia per cell robust z, rep 1 = -0.678; Wolbachia per cell robust z, rep 2 = -0.497; Wolbachia per cell robust z, rep 3 = -0.0278; inactive.
Against ND-PDSW (NADH dehydrogenase (ubiquinone) PDSW subunit) [DRSC00715] the deposit lists Wolbachia per cell robust z, rep 1 = 0.291; Wolbachia per cell robust z, rep 2 = -0.109; Wolbachia per cell robust z, rep 3 = -10.1; inactive.
Silencing of CG5568 [DRSC10518] resulted in: Wolbachia per cell robust z, rep 1 = -1.66; Wolbachia per cell robust z, rep 2 = -0.46; Wolbachia per cell robust z, rep 3 = -0.0903; inactive.
Depletion of CG5568 [DRSC22816] resulted in: Wolbachia per cell robust z, rep 1 = 1.03; Wolbachia per cell robust z, rep 2 = 0.0557; Wolbachia per cell robust z, rep 3 = 0.573; inactive.
For CG5568 [DRSC24887], the entry reads Wolbachia per cell robust z, rep 1 = -0.106; Wolbachia per cell robust z, rep 2 = 0.824; Wolbachia per cell robust z, rep 3 = -0.0486; inactive.
CG15431 [DRSC00446] scored Wolbachia per cell robust z, rep 1 = -3.71; Wolbachia per cell robust z, rep 2 = -0.394; Wolbachia per cell robust z, rep 3 = -0.635; inactive.
Silencing of CG15431 [DRSC29532] came out at: Wolbachia per cell robust z, rep 1 = 0.61; Wolbachia per cell robust z, rep 2 = 1.24; Wolbachia per cell robust z, rep 3 = 1.13; inactive.
CG32148 [DRSC09338] gave Wolbachia per cell robust z, rep 1 = -1.01; Wolbachia per cell robust z, rep 2 = -1.12; Wolbachia per cell robust z, rep 3 = -0.988; inactive.
After knock-down of CG32148 [DRSC28787], the record shows Wolbachia per cell robust z, rep 1 = -0.196; Wolbachia per cell robust z, rep 2 = 0.419; Wolbachia per cell robust z, rep 3 = 0.553; inactive.
Against RpS3 (Ribosomal protein S3) [DRSC16838], the values are Wolbachia per cell robust z, rep 1 = 2.41; Wolbachia per cell robust z, rep 2 = 0.574; Wolbachia per cell robust z, rep 3 = 3.28; active.
After knock-down of CG8562 [DRSC10995], the screen gave Wolbachia per cell robust z, rep 1 = -3.52; Wolbachia per cell robust z, rep 2 = -0.28; Wolbachia per cell robust z, rep 3 = -4.01; inactive.
With knock-down of CG8562 [DRSC28778], the record shows Wolbachia per cell robust z, rep 1 = 0.11; Wolbachia per cell robust z, rep 2 = -1.23; Wolbachia per cell robust z, rep 3 = -1.93; inactive.
With knock-down of Pgam5-2 (Phosphoglycerate mutase 5-2) [DRSC04278], the screen gave Wolbachia per cell robust z, rep 1 = 0.396; Wolbachia per cell robust z, rep 2 = 0.619; Wolbachia per cell robust z, rep 3 = 2.71; inactive.
After knock-down of Pgam5-2 (Phosphoglycerate mutase 5-2) [DRSC41370], the record shows Wolbachia per cell robust z, rep 1 = -2.08; Wolbachia per cell robust z, rep 2 = -0.47; Wolbachia per cell robust z, rep 3 = 1.08; inactive.
Against CG14137 [DRSC10142] the deposit lists Wolbachia per cell robust z, rep 1 = -0.455; Wolbachia per cell robust z, rep 2 = -0.836; Wolbachia per cell robust z, rep 3 = 0.933; inactive.
Silencing of CG14137 [DRSC25376] resulted in: Wolbachia per cell robust z, rep 1 = -0.368; Wolbachia per cell robust z, rep 2 = -2.33; Wolbachia per cell robust z, rep 3 = -0.283; inactive.
For CG3040 [DRSC22486], the values are Wolbachia per cell robust z, rep 1 = -0.354; Wolbachia per cell robust z, rep 2 = 0.223; Wolbachia per cell robust z, rep 3 = 0.191; inactive.
For trsn (translin) [DRSC06078], the values are Wolbachia per cell robust z, rep 1 = 0.273; Wolbachia per cell robust z, rep 2 = -0.177; Wolbachia per cell robust z, rep 3 = 0.132; inactive.
With knock-down of CG42524 [DRSC41348], the record shows Wolbachia per cell robust z, rep 1 = -0.751; Wolbachia per cell robust z, rep 2 = -0.0218; Wolbachia per cell robust z, rep 3 = -1.76; inactive.
Against dpr10 (defective proboscis extension response 10) [DRSC09015] the deposit lists Wolbachia per cell robust z, rep 1 = 0.579; Wolbachia per cell robust z, rep 2 = -0.338; Wolbachia per cell robust z, rep 3 = 1.84; inactive.
Against dpr10 (defective proboscis extension response 10) [DRSC10159], the values are Wolbachia per cell robust z, rep 1 = -0.754; Wolbachia per cell robust z, rep 2 = 0.796; Wolbachia per cell robust z, rep 3 = 0.312; inactive.
Silencing of dpr10 (defective proboscis extension response 10) [DRSC10160] came out at: Wolbachia per cell robust z, rep 1 = 0.225; Wolbachia per cell robust z, rep 2 = 0.0226; Wolbachia per cell robust z, rep 3 = -0.436; inactive.
Silencing of CG32603 [DRSC19409] resulted in: Wolbachia per cell robust z, rep 1 = -5; Wolbachia per cell robust z, rep 2 = 0.563; Wolbachia per cell robust z, rep 3 = -4.17; inactive.
CG32603 [DRSC21586] showed Wolbachia per cell robust z, rep 1 = -0.0345; Wolbachia per cell robust z, rep 2 = 0.14; Wolbachia per cell robust z, rep 3 = -1.15; inactive.
CG32603 [DRSC25240] gave Wolbachia per cell robust z, rep 1 = -0.579; Wolbachia per cell robust z, rep 2 = -0.22; Wolbachia per cell robust z, rep 3 = -1.47; inactive.

Hits, of those listed so far:
Hecw (Hecw ubiquitin protein ligase) [DRSC18261] | Wolbachia per cell robust z, rep 1: -1.63; Wolbachia per cell robust z, rep 2: -1.86; Wolbachia per cell robust z, rep 3: -1.32; outcome: active
RpS3 (Ribosomal protein S3) [DRSC16838] | Wolbachia per cell robust z, rep 1: 2.41; Wolbachia per cell robust z, rep 2: 0.574; Wolbachia per cell robust z, rep 3: 3.28; outcome: active
